The test system of this data set is HBV DNA. Put plainly: HBV DNA activity inhibition assay (quantitative PCR) in HepAD38 cells. The data set is classed as cell-based, hepatitis B virus (HBV). The note with it: selectivity index SI=CC50/IC50. How it is done:
HBV stably transfected hepatocellular carcinoma cell line, HepAD38, was able to secrete HBV viral particles (containing HBsAg, HBeAg and DNA) when the cells were cultured. The amount of HBsAg and HBeAg secreted by the cells and the DNA produced varied under the intervention of anti-HBV target compounds, so the antiviral activity of the sample drug could be calculated by measuring the amount of HBsAg and HBeAg secreted by the cells into the culture supernatant and the HBV DNA produced, with reference to the amount in the unspiked control. Using entecavir as a positive control drug, the concentration of the drug at 50% inhibition of HBV DNA was measured by quantitative PCR at the value of IC50; the concentration of the sample drug causing 50% cell death was measured by CCK-8 at the value of CC50, and the “selectivity index” of the compound to be tested was calculated. SI=CC50/IC50. (1) Cytotoxicity assay
(2) HBV DNA Activity Inhibition Assay (Quantitative PCR Method)
HepAD38 cells were cultured in 96-well cell culture plate for 24 hours, then 10 μM, 2 μM, 0.4 μM, 0.08 μM and […] drug-containing medium was added and the cells were incubated for 10 days (changed every 2 days), the supernatant was collected and the supernatant HBV DNA content was measured by quantitative PCR.

For `O=C(Nc1ccc(F)c(Cl)c1)c1cc(S(=O)(=O)NC2CCCC2)cc2c1OCCO2` [Compound 5b], the SI is listed as more than 100. Regarding `O=C(Nc1ccc(F)c(Cl)c1)c1cc(S(=O)(=O)NC2CCCCC2)cc2c1OCCO2` [Compound 5c], the SI is more than 100. Regarding `CC(C)NS(=O)(=O)c1cc2c(c(C(=O)Nc3ccc(F)c(Cl)c3)c1)OCCO2` [Compound 5k], the SI was more than 100. In turn, `C=C1[C@H](CO)[C@@H](O)C[C@@H]1n1cnc2c(=O)[nH]c(N)nc21` [ETV, entecavir, reference compound] gave an SI of more than 100.
